Compound potency records, mixed from different reports. Data source: NIAID ChemDB in PubChem.

Shared fields: whole-cell or culture tests; species: Candida tropicalis; measure: MIC

Rows are shuffled and stem from different studies. An empty or dashed field is not shown.

| compound | read by | strain or isolate | value |
|---|---|---|---|
| O=C(CCn1ccnc1)c1ccc(Cl)cc1 | broth dilution | RTCC 1095 | >64 µg/mL |
| C[C@@H]1CC(=O)N(CCCc2ccccc2)C1=O | broth dilution / turbidity | CCC 131-2000 | 125 µg/mL |
| Fc1ccc(C(Cn2ccnc2)NC/C=C/c2ccccc2)cc1 |  | CBS 94 CA 44 CA 49 | 53 µg/mL |
| CC1C(=O)N(CCCCc2ccccc2)C(=O)C1C | broth dilution / turbidity | CCC 131-2000 | 125 µg/mL |
| CC(=O)O[C@@H]1C(=O)N(c2ccc(C(=O)O)cc2)[C@H]1c1ccc2c(c1)OCO2 |  | CP/K92 | 135.5 µM |
| N=C(N)c1ccc(OCCCCCCOc2ccc(C(=N)N)cc2)cc1 | agar diffusion / agar | Ct2 | 26 µg/mL |
| CN1CCC[C@H]1CCCCCCCCCc1ccccc1 |  | HB | 25 µg/mL |
| CCCCCCCCCCCCCCCC(=O)NC(CCCCN)C(=O)NC(CCCCN)C(N)=O | broth dilution | 4795 | 2 µg/mL |
| C[C@@H]1CC[C@]2(C(=O)O)CC[C@]3(C)C(=CCC4[C@@]5(C)C[C@@H](O)[C@H](O)[C@@](C)(CO)C5CC[C@]43C)C2[C@H]1C | agar |  | 256 µg/mL |
| CCCCCCCC/C=C\CCCCCCCC(=O)N[C@H](C(=O)N1C[C@H](C)C[C@H]1C(=O)N[C@H](C(=O)N[C@@H](CCO)C(=O)N[C@@H](C)CO)C(C)C)[C@@H](C)O | broth dilution / visual reading | ATCC 750 | >32 µg/mL |
| C[C@@H]([C@H](N)C(=O)N[C@H](C(=O)O)[C@H]1O[C@@H](n2ccc(=O)[nH]c2=O)[C@H](O)[C@@H]1O)[C@H](O)c1ccc(O)cn1 | visual reading | 53 | >500 µg/mL |
| O=C(CCn1ccnc1)c1cccc(C(O)c2ccc(Cl)cc2)c1 | broth dilution | RTCC 1095 | 64 µg/mL |
| C[C@H]1N(C(=O)c2ccc(C(F)(F)F)cc2)CCO[C@@]1(Cn1cncn1)c1ccc(F)cc1F |  | Isolate 1 | >64 µg/mL |
| Fc1ccc(C(Cn2ccnc2)NCc2ccc(-c3ccccc3)cc2)cc1 |  | CBS 94 CA 44 CA 28 | 2.4 µg/mL |
| COc1cc(O)c2c(c1)C(=O)c1c(cc3c(c1O)-c1c(cc(C)c(C(=O)NC(CO)C(=O)O)c1O)[C@H](OC1OC(C)C(O)C(OC4OCC(O)C(O)C4O)C1O)C3O)C2=O |  | Isolate 93-681 fluconazole-susceptible | 8 µg/mL |
| Clc1ccc(C(Cn2ccnc2)NCc2ccc(-c3ccccc3)cc2)c(Cl)c1 |  | CBS 94 CA 44 CA 41 | 5.2 µg/mL |
| OC(CCn1ccnc1)c1cccc(C(O)c2ccc(Cl)cc2)c1 | broth dilution | RTCC 1095 | >64 µg/mL |
| CC1CC(=O)N(c2ccc([N+](=O)[O-])cc2)C1=O | broth dilution / turbidity | CCC 131-2000 | 125 µg/mL |
| O=C1C2=C(OC(CI)C2)C(=O)c2ccccc21 | broth dilution | Clinical isolate | 42.6 µg/mL |
| O=C(CCn1ccnc1)c1cccc(C(O)c2ccc(Br)cc2)c1 | broth dilution | RTCC 1095 | 64 µg/mL |
| CCCCCCCCCCCCCCCCn1cc[n+](C)c1 | broth dilution | 72P | 0.014 µg/mL |
| Clc1ccc(C(Cn2ccnc2)NCc2cccc3ccccc23)c(Cl)c1 |  | CBS 94 CA 44 CA 30 | 23.3 µg/mL |
| CC(=O)OC1C(=O)N(c2ccccc2)C1c1ccccc1 |  | CP/K92 | 88.96 µM |
| CO/N=C/C(C)(C)C(O)(Cn1cncn1)c1ccc(Cl)cc1 | visual reading | 1525 | 1 µg/mL |
| C[C@@H](c1ncncc1F)[C@](O)(Cn1cncn1)c1ccc(F)cc1F | broth dilution | 8685 | 0.015 µg/mL |
| C[C@@H]1CC(=O)N(Cc2ccccc2)C1=O | broth dilution / turbidity | CCC 131-2000 | 31.3 µg/mL |
| Nc1ncccc1-c1cc(Cc2ccc(COc3ccccn3)cc2)no1 | broth dilution | 8663 | 0.015 µg/mL |
| C[C@H]1[C@H](O)[C@@H](C)/C=C/C=C/C=C/C=C/C=C/C=C/C=C/[C@H](O[C@@H]2O[C@H](C)[C@@H](O)[C@H](N)[C@@H]2O)C[C@@H]2O[C@](O)(C[C@@H](O)C[C@@H](O)CC[C@H](O)[C@@H](O)C[C@@H](O)CC(=O)O[C@H]1C)C[C@H](O)[C@H]2C(=O)O | absorbance | MTCC 1406 | 1 µg/mL |
| COC(=O)c1ccc(N2C(=O)C(OC(C)=O)C2c2ccc(OC)cc2)cc1 |  | CP/K92 | 33.87 µM |
| CC(C)(O)c1cn(-c2ccc(Cl)cc2)nn1 | broth dilution | URM 916 | 128 µg/mL |
| OC(Cn1cncn1)(Cn1cncn1)c1ccc(F)cc1F | agar |  | ≥100 µg/mL |
| Clc1ccc(C(Cn2ccnc2)NCc2ccc(-c3ccccc3)cc2)cc1 |  | CBS 94 CA 44 CA 39 | 2.1 µg/mL |
| Cc1ccc(C(O)c2cccc(C(=O)CCn3ccnc3)c2)cc1 | broth dilution | RTCC 1095 | >64 µg/mL |
| Fc1ccc(C(Cn2ccnc2)NCc2cccc3ccccc23)cc1 |  | CBS 94 CA 44 CA 31 | 32.2 µg/mL |
| O=C1c2ccccc2CC1Cn1ccnc1 | broth dilution | RTCC 1065 | >64 µg/mL |
| CC1CC(=O)N(Cc2ccccc2)C1=O | broth dilution / turbidity | CCC 131-2000 | 125 µg/mL |
| O=C1C(OS(=O)(=O)c2ccc([N+](=O)[O-])cc2)C(c2ccccc2)N1c1ccccc1 |  | CP/K92 | 7.04 µM |
| CC1C(=O)N(CCc2ccccc2)C(=O)C1C | broth dilution / turbidity | CCC 131-2000 | 125 µg/mL |
| CC(=O)O[C@@H]1C(=O)N(c2ccc(C(=O)O)cc2)[C@H]1c1ccccc1 |  | CP/K92 | 308 µM |

A second listing of 6 rows from above:

compound	read by	strain or isolate	value
CO/N=C/C(C)(C)C(O)(Cn1cncn1)c1ccc(Cl)cc1	visual reading	1525	1 µg/mL
O=C1C(OS(=O)(=O)c2ccc([N+](=O)[O-])cc2)C(c2ccccc2)N1c1ccccc1		CP/K92	7.04 µM
CC(=O)O[C@@H]1C(=O)N(c2ccc(C(=O)O)cc2)[C@H]1c1ccccc1		CP/K92	308 µM
Fc1ccc(C(Cn2ccnc2)NC/C=C/c2ccccc2)cc1		CBS 94 CA 44 CA 49	53 µg/mL
N=C(N)c1ccc(OCCCCCCOc2ccc(C(=N)N)cc2)cc1	agar diffusion / agar	Ct2	26 µg/mL
Nc1ncccc1-c1cc(Cc2ccc(COc3ccccn3)cc2)no1	broth dilution	8663	0.015 µg/mL